Experimental data: paper PMC10653854, “New insight into flavivirus maturation from structure/function studies of the yellow fever virus envelope protein complex” (2023)

Assays:
[1] = molecular target: Yellow fever virus pr protein (N-terminal furin fragment of prM) (UniProt Q6DV88); experiment: surface plasmon resonance (Biacore T200); conditions: 25 °C, not stated (supplement)
[2] = molecular target: Yellow fever virus pr protein (N-terminal furin fragment of prM) (UniProt Q6DV88); experiment: isothermal titration calorimetry (ITC); conditions: 25 °C, 150 mM NaCl, 50 mM Tris, 50 mM MES (same mixed buffer at pH 6, 7 and 8)

## Yellow fever virus envelope protein E, soluble ectodomain (sE)
[1]; pH 6
  K off: 23.6 10^-4 s^-1
  K on (10^5 M^-1.s^-1): 3.8
  ΔG: -11.2 kcal/mol
[1]; pH 8
  K off: 13.4 10^-4 s^-1
  K on (10^5 M^-1.s^-1): 0.7
  ΔG: -10.5 kcal/mol
[2]; pH 6
  ΔG: -11 kcal/mol
[2]; pH 8
  ΔG: -9.9 kcal/mol
